Experimental data: PubChem BioAssay AID624099 (ICCB-Longwood, 2012)
Test: 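Knock-downs relieving repression by E2 of an HPV18 LCR luciferase reporter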 (primary screen). System: human C33A cervical carcinoma cells (HPV-negative) stably expressing BPV1 E2 and an HPV18 LCR luciferase reporter. Reagent: siRNA pool against human genes, 40 nM. Duration: 72 h. Measured: 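Per-well luciferase luminescence, z-scored on each plate against the plate mean and SD with control wells left out, then averaged across three replicate plates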. Scale: mean z-score and z-score: higher = stronger reporter signal, weaker E2 silencing. Rule for the call: 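Mean z ≥ 2 together with z ≥ 2 in two or more of the three replicates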.
The deposit covers about 21,000 reagents; this is an unselected part. In the full data, 497 (2.4%) were called active. 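Higher z means weaker E2 silencing; only reporter increases were scored, and knock-downs that hurt cell survival may mask genuine repressor factors.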

CDC123 (GeneID 8872) | mean z-score = -0.71; z-score, replicate A = -0.73; z-score, replicate B = -0.85; z-score, replicate C = -0.55; Call = inactive
PTBP2 (GeneID 58155) | mean z-score = 0.16; z-score, replicate A = 0.07; z-score, replicate B = 0.27; z-score, replicate C = 0.14; Call = inactive
KCTD7 (GeneID 154881) | mean z-score = -0.61; z-score, replicate A = -0.54; z-score, replicate B = -0.53; z-score, replicate C = -0.77; Call = inactive
FRMD7 (GeneID 90167) | mean z-score = -0.56; z-score, replicate A = -0.36; z-score, replicate B = -0.47; z-score, replicate C = -0.85; Call = inactive
PDE1C (GeneID 5137) | mean z-score = -0.78; z-score, replicate A = -0.78; z-score, replicate B = -0.83; z-score, replicate C = -0.73; Call = inactive
LINC01122 (GeneID 400955) | mean z-score = 1.94; z-score, replicate A = 2.79; z-score, replicate B = 1.61; z-score, replicate C = 1.42; Call = inactive
SLC4A2 (GeneID 6522) | mean z-score = 1.05; z-score, replicate A = 0.92; z-score, replicate B = 0.94; z-score, replicate C = 1.28; Call = inactive
SERPINA5 (GeneID 5104) | mean z-score = 1.78; z-score, replicate A = 1.77; z-score, replicate B = 1.77; z-score, replicate C = 1.8; Call = inactive
ZNF835 (GeneID 90485) | mean z-score = 0.52; z-score, replicate A = 0.51; z-score, replicate B = 0.43; z-score, replicate C = 0.62; Call = inactive
FNDC7 (GeneID 163479) | mean z-score = -0.67; z-score, replicate A = -0.33; z-score, replicate B = -0.85; z-score, replicate C = -0.83; Call = inactive
CANT1 (GeneID 124583) | mean z-score = -0.21; z-score, replicate A = -0.36; z-score, replicate B = -0.2; z-score, replicate C = -0.06; Call = inactive
UQCC4 (GeneID 283951) | mean z-score = 1.34; z-score, replicate A = 0.51; z-score, replicate B = 1.79; z-score, replicate C = 1.72; Call = inactive

Targets listed so far whose gene name starts with C or c:
CDC123 (GeneID 8872) | mean z-score = -0.71; z-score, replicate A = -0.73; z-score, replicate B = -0.85; z-score, replicate C = -0.55; Call = inactive
CANT1 (GeneID 124583) | mean z-score = -0.21; z-score, replicate A = -0.36; z-score, replicate B = -0.2; z-score, replicate C = -0.06; Call = inactive

The results go on:
KRT13 (GeneID 3860) | mean z-score = 1.11; z-score, replicate A = 1.06; z-score, replicate B = 1.3; z-score, replicate C = 0.97; Call = inactive
G6PD (GeneID 2539) | mean z-score = 0.84; z-score, replicate A = 0.46; z-score, replicate B = 1.35; z-score, replicate C = 0.7; Call = inactive
LOC389159 (retired record) (GeneID 389159) | mean z-score = -1.57; z-score, replicate A = -1.89; z-score, replicate B = -1.48; z-score, replicate C = -1.34; Call = inactive
QDPR (GeneID 5860) | mean z-score = -0.19; z-score, replicate A = 0.61; z-score, replicate B = -0.57; z-score, replicate C = -0.61; Call = inactive
KAT6B (GeneID 23522) | mean z-score = 0.05; z-score, replicate A = 0.45; z-score, replicate B = -0.09; z-score, replicate C = -0.2; Call = inactive
LOC387983 (retired record) (GeneID 387983) | mean z-score = 0.14; z-score, replicate A = 0.06; z-score, replicate B = 0.16; z-score, replicate C = 0.2; Call = inactive
NLN (GeneID 57486) | mean z-score = 0.26; z-score, replicate A = 0.25; z-score, replicate B = 0.06; z-score, replicate C = 0.47; Call = inactive
VN2R9P (GeneID 648315) | mean z-score = -0.75; z-score, replicate A = -0.37; z-score, replicate B = -0.75; z-score, replicate C = -1.15; Call = inactive
SERPINF1 (GeneID 5176) | mean z-score = 1.99; z-score, replicate A = 2.29; z-score, replicate B = 1.85; z-score, replicate C = 1.84; Call = inactive
KRT7 (GeneID 3855) | mean z-score = -0.03; z-score, replicate A = -0.06; z-score, replicate B = -0.4; z-score, replicate C = 0.39; Call = inactive
LOC343854 (retired record) (GeneID 343854) | mean z-score = -0.78; z-score, replicate A = -0.96; z-score, replicate B = -0.72; z-score, replicate C = -0.65; Call = inactive
CHERP (GeneID 10523) | mean z-score = 0.48; z-score, replicate A = 0.28; z-score, replicate B = 0.52; z-score, replicate C = 0.63; Call = inactive
STPG3 (GeneID 441476) | mean z-score = -1.26; z-score, replicate A = -1.09; z-score, replicate B = -1.62; z-score, replicate C = -1.06; Call = inactive
UBXN11 (GeneID 91544) | mean z-score = 0.58; z-score, replicate A = 0.48; z-score, replicate B = 0.65; z-score, replicate C = 0.61; Call = inactive
ORC2 (GeneID 4999) | mean z-score = -0.09; z-score, replicate A = -0.33; z-score, replicate B = 0.23; z-score, replicate C = -0.16; Call = inactive
